Measurements as given in PubChem BioAssay AID488965 (Broad Institute, 2010).
Only a part is listed here, and it is no random draw. Activity calls are given as the source filed them. Cut-off read from the data, not from the text of the source: active = inhibition above about 30% (passing the limit was not always enough); inconclusive = no clear call, values can overlap the other calls.

tested on: PvdQ acylase [Pseudomonas aeruginosa LESB58]; assay: P. aeruginosa PvdQ acylase inhibitors, primary screen, biochemical, fluorescence, plate reader and imaging, single point (AID 488965); details: purified PvdQ acylase, at 10 µM, active compounds read high;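 note: 0% = vehicle neutral wells and 100% = reference inhibitor wells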

SMILES | inhibition
Cc1cc(N(CCCl)CCCl)ccc1C=O | inactive: -10.8%
CCCN1CCC(Nc2cc(OC)cc(OC)c2)CC1 | inactive: -17.8%
c1ccc(CN2CCC(Nc3ccccc3)CC2)cc1 | inactive: -8.25%
CN(C)C1(CNC(=O)c2cccc(C#N)c2)CCCCC1 | inactive: -0.0548%
CC(C)(C)OC(=O)N1CCC(N(C(=O)c2ccccc2)c2ccc(Cl)cc2)CC1 | inactive: -17.8%
N#Cc1ccc(C(=O)NCC2(N3CCCCC3)CCCCC2)cc1 | inactive: -0.296%
O=C(OC1CN2CCC1CC2)C1c2ccccc2C=Cc2ccccc21 (centres undefined) | inactive: -17.4%
N/C(=N\O)c1c(N)no[n+]1[O-] | inactive: -16.2%
CCOC(=O)N1CCC(Nc2ccc(C)cc2)CC1 | inactive: 3.22%
COc1ccc(C(=O)NCC2(N3CCOCC3)CCCCC2)cc1OC | inactive: 12%
O=C(NCC1(N2CCOCC2)CCCCC1)c1cc(Br)ccc1Cl | inactive: -8.16%
COc1cc(C(=O)NCC2(N3CCOCC3)CCCCC2)cc(OC)c1C | inactive: -8.25%
CN1CCC(Nc2ccc(Cl)cc2)CC1 | inactive: -8.65%
CCC(CO)(C(=O)OC1CN2CCC1CC2)c1ccccc1 (centres undefined) | inactive: 2.52%
COc1cccc(C(=O)N(c2cc(C)cc(C)c2)C2CCN(C(=O)OC(C)(C)C)CC2)c1 | inactive: -5.25%
COc1cc(OC)cc(C(=O)NCC2(N3CCOCC3)CCCCC2)c1 | inactive: -4.4%
CCCOc1ccc(C(=O)NCC2(N(C)C)CCCCC2)cc1 | inactive: -24%
O=C(O)C1(Nc2ccccc2)CCN(Cc2ccccc2)CC1 | inactive: -7.46%
CC(C)(C)OC(=O)N1CCC(Nc2ccccc2)CC1 | inactive: 12.3%
CN1CCC(Nc2ccc(F)c(Cl)c2)CC1 | inactive: -2.18%
CCOc1ncccc1C(=O)NCC1(N2CCOCC2)CCCCC1 | inactive: -13.6%
Cn1c(=O)[nH]cc(N(CCCl)CCCl)c1=O | inactive: -14.9%
CN(C)c1ccc(C(=O)NCC2(N3CCCCC3)CCCCC2)cc1 | inactive: -1.23%
O=C(NCC1(N2CCCCC2)CCCCC1)c1ccco1 | inactive: 4.29%
CCN1CCC(Nc2cccc(F)c2)CC1 | inactive: -23.1%

SMILES | inhibition
Cc1ccccc1NC1(C#N)CCN(Cc2ccccc2)CC1 | inactive: -16.2%
Cc1ccc(NC2(C#N)CCN(Cc3ccccc3)CC2)cc1 | inactive: -1.72%
Fc1ccccc1NC1CCN(Cc2ccccc2)CC1 | inactive: -6.04%
Cc1ccc(C(=O)NCC2(N3CCCCC3)CCCCC2)o1 | inactive: -11.2%
COc1cc(OC)cc(C(=O)NCC2(N3CCCCC3)CCCCC2)c1 | inactive: -1.77%
CC(=O)N(c1ccccc1)C1CCNCC1 | inactive: -0.338%
COc1cc(C(=O)NCC2(N(C)C)CCCCC2)ccc1OC(F)F | inactive: 11.9%
CCOC(=O)N1CCC(Nc2cccc(C)c2)CC1 | inactive: -11.7%
CCOC(=O)N1CCC(Nc2ccc(F)cc2)CC1 | inactive: -9.02%
COc1ccc(NC2CCN(CCc3ccccc3)CC2)c(OC)c1 | inactive: 4.57%
O=C(NCC1(N2CCCCC2)CCCCC1)c1ccc(F)cc1 | inactive: -3.29%
CCCCOc1ccc(C(=O)NCC2(N3CCOCC3)CCCCC2)cc1 | inactive: 11.8%
O=P1(N(CCCl)CCCl)SCCCS1 | inactive: 4.5%
CCOc1ccc(C)cc1CN(CCCl)CCCl | inactive: 5.64%
O=C1CCN(Cc2ccccc2)CC1 | inactive: -9.96%
CCOC(=O)N1CCC(Nc2ccc(OC)cc2)CC1 | inactive: -2.13%
COc1ccc(Cl)cc1C(=O)NCC1(N2CCOCC2)CCCCC1 | inactive: -11.4%
O=C(OC1CN2CCC1CC2)C1c2ccccc2Oc2ccccc21 (centres undefined) | inactive: -14.3%
O=C(NCC1(N2CCCCC2)CCCCC1)c1ccc(Cl)s1 | inactive: -13.9%
N#CC1(Nc2ccccc2)CCN(Cc2ccccc2)CC1 | inactive: -10.3%
O=C(NCC1(N2CCOCC2)CCCCC1)c1cc2ccccc2o1 | inactive: -11.5%
Cc1cc(C)cc(N(C(=O)c2ccccc2)C2CCN(C(=O)OC(C)(C)C)CC2)c1 | inactive: -2.9%
O=C(NCC1(N2CCCCC2)CCCCC1)c1ccc(Cl)nc1 | inactive: -8.09%
Cc1cccc(NC2(C#N)CCN(Cc3ccccc3)CC2)c1 | inactive: -8.05%
CSc1ccccc1C(=O)NCC1(N2CCCCC2)CCCCC1 | inactive: 5.83%

SMILES | inhibition
O=C(NCC1(N2CCCCC2)CCCCC1)c1cccs1 | inactive: 5.11%
O=C(NCC1(N2CCCCC2)CCCCC1)c1ccc(=O)[nH]c1 | inactive: -15.8%
CC(C)(C)OC(=O)N1CCC(N(C(=O)c2ccccc2)c2ccc(F)cc2)CC1 | inactive: 19%
COc1ccc(C(=O)NCC2(N3CCCCC3)CCCCC2)c(OC)c1OC | inactive: 9.26%
COc1ccc(C(=O)NCC2(N3CCCCC3)CCCCC2)cc1 | inactive: -13.2%
CCCOc1ccc(C(=O)NCC2(N(C)C)CCCCC2)cc1OC | inactive: -9.27%
O=C(NCC1(N2CCCCC2)CCCCC1)c1cncc(Br)c1 | inactive: -2.36%
CN1CCC(Nc2cccc(F)c2)CC1 | inactive: -3.05%
O=C(NCC1(N2CCOCC2)CCCCC1)c1cc(F)c(F)cc1Cl | inactive: -17.2%
COc1cc(OC)c(C(=O)NCC2(N(C)C)CCCCC2)cc1OC | inactive: 4.64%
CN(C)c1cccc(C(=O)NCC2(N3CCCCC3)CCCCC2)c1 | inactive: -3.85%
COc1ccc(CN(CCCl)CCCl)cc1Cl | inactive: -14.9%
CC(C)c1ccc(NC2CCN(C(=O)OC(C)(C)C)CC2)cc1 | inactive: -11.2%
CC(C)c1ccc(C(=O)NCC2(N3CCOCC3)CCCCC2)cc1 | inactive: -4.03%
COc1ccc(NC2CCN(C(=O)OC(C)(C)C)CC2)cc1 | inactive: -14%
CN1CCN(CCOC(=O)C(O)(c2ccccc2)c2ccccc2)CC1 | inactive: -1.95%
O=C(NCC1(N2CCOCC2)CCCCC1)c1cc(=O)[nH]c2ccccc12 | inactive: -10.3%
COc1cc(C(=O)NCC2(N3CCCCC3)CCCCC2)ccc1OC(F)F | inactive: -17.7%
O=C(NCC1(N2CCCCC2)CCCCC1)c1cccc(C(F)(F)F)c1 | inactive: -5.56%
O=C(NCC1(N2CCCCC2)CCCCC1)c1cccc([N+](=O)[O-])c1 | inactive: 8.93%
CSc1ccc(C(=O)NCC2(N3CCOCC3)CCCCC2)cc1 | inactive: 3.66%
N#CC1(Nc2ccccc2)CCN(CCc2ccccc2)CC1 | inactive: -11.2%
CCN1CCC(Nc2ccc(Cl)cc2)CC1 | inactive: -11.6%
O=C(NCC1(N2CCCCC2)CCCCC1)c1ccc(OC(F)F)cc1 | inactive: -12.1%
